Pooled drug test results. Numbers come from NIAID ChemDB, via PubChem.

Common to all: growth or infection tests; agent: HIV-1; cell line: PBMC; endpoint: EC50

An empty or dashed field is not shown. Neighbouring rows are from separate reports. ECn: concentration that inhibits the pathogen or its effect by n%.

smiles | strain or isolate | mutations | read by | value
CCCCN1C(=O)[C@@H]([C@H](O)C2CCCCC2)NC(=O)C12CCN(Cc1ccc(Oc3ccc(C(=O)O)cc3)cc1)CC2 | JR-FL R5 | - | p24 | 0.0001 µM
Cc1cn([C@H]2C[C@H](N=[N+]=[N-])[C@@H](CO)O2)c(=O)[nH]c1=O | 14a-Pre | - | p24 | 0.0053 µM
Nc1nc(NC2CC2)c2ncn([C@H]3C=C[C@@H](CO)C3)c2n1 | LAI | - | RT activity | 0.3 µM
CC(=O)OC[C@H]1O[C@@H](SCCOP(=O)(OCCS[C@@H]2O[C@H](CO)[C@@H](O)[C@H](O)[C@H]2O)OC[C@H]2O[C@@H](n3cc(C)c(=O)[nH]c3=O)C[C@@H]2N=[N+]=[N-])[C@H](OC(C)=O)[C@@H](OC(C)=O)[C@@H]1OC(C)=O | BaL | - | RT activity | 0.01 µM
C[C@@H](NC(=S)Nc1ccc(Cl)cn1)c1cccc2ccccc12 | A17 | RT-Y181C | p24 | 0.043 µM
Nc1nc2c(ncn2[C@H]2CO[C@@H](CO)O2)c(=O)[nH]1 | LAI | - | p24 | 0.25 µM
CC(=O)O[C@@H]1[C@H](OC(=O)CC(C)C)c2c(ccc3ccc(=O)oc23)OC1(C)C | IIIB | - | p24 | 3.9 µM
C#C[C@]1(CO)O[C@@H](n2cnc3c(N)ncnc32)C[C@@H]1O | NL4-3 | - | p24 / antigen | 0.011 µM
COC(=O)N[C@H](C(=O)N[C@@H](Cc1ccccc1)[C@@H](O)CN(Cc1ccc(-c2ccccn2)cc1)NC(=O)[C@@H](NC(=O)OC)C(C)(C)C)C(C)(C)C | LAI | - | RT activity | 0.007 µM
Cc1ccnc2c1NC(=O)c1cccnc1N2C1CC1 | A17 | RT-Y181C | p24 | >1 µM
C=C(C)[C@]12C[C@@H](COC(=O)c3ccccc3)[C@@]34O[C@]5(O[C@@H]1[C@@H]3[C@@H]1O[C@]1(CO)[C@@H](O)[C@@]1(O)[C@H]4[C@H]([C@H](C)[C@@H]1OC(=O)c1ccccc1)[C@H](C)CCCCCC[C@H]5O)O2 | YU2 | - | p24 / ELISA | 0.0000045 µM
Cc1ccc(-c2ccc3c(c2)C=C(C(=O)Nc2ccc(C[N+](C)(C)C4CCOCC4)cc2)CCC3)cc1 | BAL R5 | - | p24 | 0.014 µM
Cc1ccc(-c2ccc3c(c2)C=C(C(=O)Nc2ccc(C[N+](C)(C)C4CCOCC4)cc2)CCC3)cc1 | BaL | - | p24 | 0.0055 µM
Nc1nc(=O)n([C@@H]2CS[C@H](CO)O2)cc1F | LAI | - | RT activity | 0.008 µM
COC(=O)[C@H](C)NP(=O)(OC[C@H]1O[C@@H](N2C(=O)NC(=O)C(C)(Br)C2OC)C[C@@H]1N=[N+]=[N-])Oc1ccc(Br)cc1 | IIIB | - | p24 | 0.005 µM
CC(=O)OC[C@H]1O[C@@H](SCCOP(=O)(OCS[C@@H]2O[C@H](COC(C)=O)[C@@H](OC(C)=O)[C@H](OC(C)=O)[C@H]2OC(C)=O)OC[C@H]2O[C@@H](n3cc(C)c(=O)[nH]c3=O)C[C@@H]2N=[N+]=[N-])[C@H](OC(C)=O)[C@@H](OC(C)=O)[C@@H]1OC(C)=O | BaL | - | RT activity | 0.06 µM
Cc1ccc(NC(=S)N[C@H](C)c2cccc3ccccc23)nc1 | A17V(RT-K103N Y181C) | RT-K103N Y181C | p24 | 0.543 µM
COC(=O)[C@H](C)NP(=O)(OC[C@H]1O[C@@H](N2C(=O)NC(=O)C(C)(Br)C2OC)C[C@@H]1N=[N+]=[N-])Oc1ccc(Br)cc1 | IIIB | - | p24 | 0.005 µM
Cc1c(O)cccc1C(=O)N[C@@H](CSc1ccccc1)[C@H](O)CN1C[C@H]2CCCC[C@H]2C[C@H]1C(=O)NC(C)(C)C | BAL R5 | - | p24 | 0.012 µM
Oc1ccc(/C=C/c2cc(O)cc(O)c2)cc1 | ddI-resistant (RT K65R/L74V/M184V) | RT-K65R L74V M184V | p24 | >5 µM
Cc1cn([C@H]2C[C@H](N=[N+]=[N-])[C@@H](COP(=O)(OCCS[C@@H]3O[C@H](CO)[C@@H](O)[C@H](O)[C@H]3O)OCCS[C@@H]3O[C@H](CO)[C@@H](O)[C@H](O)[C@H]3O)O2)c(=O)[nH]c1=O | BaL | - | RT activity | 0.01 µM
O=C1N(Cc2ccc(CO)cc2)[C@H](Cc2ccccc2)[C@H](O)[C@@H](O)[C@@H](Cc2ccccc2)N1Cc1ccc(CO)cc1 | Y clinical isolate | - | p24 | 0.04 µM
C[C@H](Cn1cnc2c(N)ncnc21)OCP(=O)(O)O | LAI | - | RT activity | 1.6 µM
COC(=O)[C@H](Cc1c[nH]c2ccccc12)NP(=O)(OC[C@H]1O[C@@H](N2C(=O)NC(=O)C(C)(Br)C2OC)C[C@@H]1N=[N+]=[N-])Oc1ccc([N+](=O)[O-])cc1 | IIIB | - | p24 | 0.04 µM
C[C@@H](NC(=S)Nc1ccc(Br)cn1)c1cccc2ccccc12 | A17V(RT-K103N Y181C) | RT-K103N Y181C | p24 | 0.287 µM
Cc1cn([C@H]2C[C@@H](N=[N+]=[N-])[C@@H](CO)O2)c(=O)[nH]c1=O | NL4-3 | - | p24 / antigen | 0.022 µM
CCCC(=O)OCSc1ccccc1C(=O)NCCC(N)=O | 98IN017 | - | p24 / ELISA | 2.62 µM
O=c1[nH]cnc2c1ncn2[C@H]1CC[C@@H](CO)O1 | 8420 CLADE D CLADE D | - | p24 | 7.23 µM
Cc1cn([C@H]2C[C@H](N=[N+]=[N-])[C@@H](CO)O2)c(=O)[nH]c1=O | JR-FL R5 | - | p24 | 0.01 µM
C#C[C@]1(CO)O[C@@H](n2cnc3c(N)nc(F)nc32)C[C@@H]1O | NL4-3 | - | p24 / antigen | 0.00005 µM
CC(C)[C@H](NC(=O)c1ccc2ccccc2n1)C(=O)N[C@@H](Cc1ccccc1)[C@H](O)CN1CC[C@@H](OCc2ccncc2)C[C@H]1C(=O)NC(C)(C)C | ddI-resistant | - | p24 | 0.005 µM
CC(C)c1cc2c(c(O)c1O)[C@@]1(C(=O)O)CCCC(C)(C)C1CC2 | clinical isolate 1(C MDR X4) | PR-L10I I15V K20R L24I M36I M46L I54V I62V L63P K70O V82A L89M | - | >1 µM
CCC(=O)c1ccc(F)c([C@@H]2C[C@@H]2NC(=O)Nc2ccc(C#N)cn2)c1O | 92UG029 | - | absorbance | 0.0005 µM
Cc1cn([C@H]2C[C@H](N=[N+]=[N-])[C@@H](CO)O2)c(=O)[nH]c1=O | NL4-3 X5 | - | p24 | 0.009 µM
CC(C)(C)C(=O)c1sc(C(=O)NCc2ccccc2)c(O)c1O | TH92001 X4 CLADE E | - | p24 | 0.2 µM
Cc1cc(C#N)cc(C)c1Oc1nc(Nc2ccc(C#N)cc2)nc(N)c1Br | 1617-1 | - | absorbance | 0.0015 µM
CC(C)Nc1cccnc1N1CCN(C(=O)c2cc3cc(N=CN(C)C)ccc3[nH]2)CC1 | Seropositive clinical isolate D | - | MTT | <1 µM
C[C@]1(/C=C/P(=O)(O)O)CO[C@@H](n2cnc3c(N)ncnc32)C1 | LAI | - | - | 50.6 µM